A mixed list of measured activities; the numbers were collected in NIAID ChemDB.

Shared fields: tests in culture; species: Rhinovirus

Rows are shuffled and stem from different studies. An empty or dashed field is not shown. ECn is the concentration giving n% inhibition of infection, replication or growth. MIC50, MIC90 and the like: level of inhibition, or share of isolates inhibited.

SMILES	read by	endpoint	cells	strain or isolate	result
CS(=O)(=O)c1ccc(NCc2ccc(Cl)c(Cl)c2)nc1	cytopathic effect	EC50	HeLa	TYPE 2	0.6 µg/mL
CCOC(=O)c1ccc(OCCCCC(=O)c2ccc(Cl)c(Cl)c2)cc1	-	MIC80	-	serotype 1A 1B 2 6 14 15 21 22 25 29 30 41 42 45 59 63 67 70 72 86 89	>194 µM
Cc1nc(Cc2ccccc2)c2[nH]c(=S)[nH]c(=O)n12	cytopathic effect	EC50	WI-38	TYPE 9	>100 µg/mL
CCOC(=O)c1ccc(OCCCCC(=O)c2ccc(F)cc2)cc1	cytopathic effect	EC50	HeLa	Serotype 14	2.1 µM
CCO/N=C/c1ccc(OCCC2CCN(c3cc(C(F)(F)F)ccn3)CC2)cc1	cytopathic effect / visual reading	EC50	KB	TYPE 1A	0.05 µg/mL
CNC(=O)/C=C(\c1ccccc1)c1ccc2nc(N)c(-c3ccc(F)c(F)c3F)n2c1	cytopathic effect	EC50	H-HELA	TYPE 14	0.21 µg/mL
CCCn1c2ccccc2c2nnc(SC)nc21	plaque count	EC50	WI-38	33342	4 µg/mL
CCO/N=C/c1ccc(OCCC2CCN(c3ccc(Cl)nn3)CC2)cc1	neutral red	EC50	KB	1857-CV51 (ICAM-1 receptor group 67)	0.013 µM
C=CCO/N=C/c1ccc(OCCCN2CCN(c3ccc(Cl)nn3)CC2)cc1	cytopathic effect / visual reading	EC50	KB	TYPE 1A	0.003 µg/mL
COc1ccc(C(=O)CCCCOc2ccc(C3=NCCO3)cc2)cc1	-	MIC80	-	serotype 1A 1B 2 6 14 15 21 22 25 29 30 41 42 45 59 63 67 70 72 86 89	>283 µM
Cn1c2ccccc2c2nnc(NCCCN)nc21	plaque count	EC50	WI-38	1059	10 µg/mL
CCOC(=O)/C=C/[C@H](C[C@@H]1CCNC1=O)NC(=O)Nc1cccc2ccccc12	-	EC50	H1-HELA	Serotype 14	>10 µM
CCO/N=C/c1ccc(OCCC2CCN(c3ccc(OCC(F)(F)F)nn3)CC2)cc1	cytopathic effect / visual reading	EC50	KB	TYPE 1A	>1 µg/mL
COCCCNc1nnc2c3ccccc3n(C)c2n1	plaque count	EC50	WI-38	HGP	220 µg/mL
Nc1nc2c(ccn2[C@@H]2C[C@H](CO)[C@@H](O)[C@H]2O)c(=O)[nH]1	-	MIC	-	TYPE 1B	>100 µg/mL
Cc1cc(CCCCCCCOc2ccc(C3=NCCO3)cc2)on1	cytopathic effect	EC50	HeLa	Serotype 14	1.8 µM
N#CCCNC(=O)C1CCCC(N)=N1	-	MIC	-	Serotype 2	>100 µg/mL
Cc1cc(CCCCCOc2ccc(C3=NCCO3)c(Cl)c2)on1	-	MIC	-	TYPE 2	0.9 µM
CNC(=O)/C=C(\c1ccccc1)c1ccc2nc(N)c(S(=O)(=O)C(C)C)n2c1	plaque count	EC50	H-HELA	TYPE 14	0.64 µg/mL
CCO/N=C/c1ccc(OCCCCN2CCN(c3cccnn3)CC2)cc1	cytopathic effect / visual reading	EC50	KB	TYPE 1A	0.05 µg/mL
Cc1cc(CCCCCOc2ccc(C3=NCCO3)c(C)c2)on1	-	MIC	-	TYPE 14	1.6 µM
N#CCCNC(=O)C1CCC(N)=N1	-	MIC	-	Serotype 2	100 µg/mL
CCC(CO)Nc1nnc2c3ccccc3n(C)c2n1	plaque count	EC50	WI-38	33342	4 µg/mL
Cc1ccc(C(=O)CCCCOc2ccc(C3=NCCO3)cc2)s1	-	MIC80	-	serotype 1A 1B 2 6 14 15 21 22 25 29 30 41 42 45 59 63 67 70 72 86 89	9.04 µM
CCO/N=C/c1ccc(OCCC2CCN(c3ccc(C)nn3)CC2)c(C)c1	cytopathic effect / visual reading	EC50	KB	TYPE 1A	<0.003 µg/mL
CCOC(=O)c1ccc(OCCCCC(=O)c2ccc(SC)cc2)cc1	-	MIC80	-	serotype 1A 1B 2 6 14 15 21 22 25 29 30 41 42 45 59 63 67 70 72 86 89	>268 µM
N#CCCCNC(=O)C1CCC(N)=N1	-	MIC	-	Serotype 2	>100 µg/mL
N#Cc1ccc(OCCCCC(=O)c2ccc(Cl)cc2)cc1	cytopathic effect	EC50	HeLa	Serotype 2	>319 µM
CC(=O)Nc1cccc(Nc2nc(Cl)nc3c2ncn3Cc2ccccc2)c1	plaque count	EC50	-	Serotype 4	2.8 µM
CO/N=C(\C)c1ccc(OCCC2CCN(c3ccc(Cl)nn3)CC2)c(OC)c1	cytopathic effect / visual reading	EC50	KB	TYPE 1A	<0.0032 µg/mL
CC(=O)Nc1nc2c(CC(O)CO)ncn2c(=O)[nH]1	cytopathic effect	EC50	WI-38	TYPE 1A	>400 µg/mL
CNC(=O)/C=C(\c1ccccc1)c1ccc2nc(N)c(-c3cc(F)ccc3F)n2c1	plaque count	EC50	H-HELA	TYPE 14	0.18 µg/mL
CC(CC(=N)N)NC(=O)C1CCC(N)=N1	-	MIC	-	Serotype 2	>100 µg/mL
CCOC(=O)/C=C/[C@H](C[C@@H]1CCNC1=O)NC(=O)Nc1cc(OC)cc(OC)c1	XTT	EC50	H1-HELA	Serotype 14	>10 µM
CCN=C1CCC(C(=O)NCCC(=N)N)N1	-	MIC	-	Serotype 2	>100 µg/mL
CNC(=O)/C=C(\c1ccccc1)c1ccc2nc(N)c(SC(C)C)n2c1	plaque count	EC50	H-HELA	TYPE 14	0.17 µg/mL
CC(=O)Nc1nc2c(CC(O)CO)nc(C)n2c(=O)[nH]1	cytopathic effect	EC50	WI-38	TYPE 9	>400 µg/mL
CS(=O)(=O)c1ccc(Cc2ccc(Cl)c(Cl)c2)nc1	cytopathic effect	EC50	HeLa	TYPE 21	>10 µg/mL
CCO/N=C/c1cc(C)c(OCCCc2cc(C)no2)c(C)c1	cytopathic effect / visual reading	EC50	KB	TYPE 1A	<0.16 µg/mL
Cc1ccc(Cc2ccc(S(C)(=O)=O)cn2)cc1	cytopathic effect	EC50	HeLa	TYPE 64	5 µg/mL
N#CCCNC(=O)C1CCCC(=O)N1	-	MIC	-	Serotype 2	>100 µg/mL
CCOC(=O)/C=C/[C@H](C[C@@H]1CCNC1=O)NC(=O)COc1ccc(Cl)c(Cl)c1	XTT	EC50	H1-HELA	Serotype 14	6.1 µM
Cn1c2ccccc2c2nnc(N3CCOCC3)nc21	plaque count	EC50	WI-38	33342	100 µg/mL
CC1CC(N)=NC1C(=O)NCCC#N	-	MIC	-	Serotype 2	100 µg/mL
CS(=O)(=O)c1ccc(Cc2ccc(Sc3ccccc3)cc2)nc1	cytopathic effect	EC50	HeLa	TYPE 64	1.3 µg/mL
CCOC(=O)c1cc(Cl)c(OCCCCC(=O)c2ccc(Cl)cc2)c(Cl)c1	-	MIC80	-	serotype 1A 1B 2 6 14 15 21 22 25 29 30 41 42 45 59 63 67 70 72 86 89	>102 µM
Cn1c2ccccc2c2nnc(NCCCO)nc21	plaque count	EC50	WI-38	HGP	63 µg/mL
O=C(CCCCOc1ccc(C2=NCCO2)cc1)c1ccc(Cl)cc1	cytopathic effect	EC50	HeLa	Serotype 14	57 µM
Cc1nc(C(C)C)c2[nH]c(=S)[nH]c(=O)n12	cytopathic effect	EC50	WI-38	TYPE 9	>200 µg/mL

For reference, 6 entries again:

SMILES	read by	endpoint	cells	strain or isolate	result
CNC(=O)/C=C(\c1ccccc1)c1ccc2nc(N)c(S(=O)(=O)C(C)C)n2c1	plaque count	EC50	H-HELA	TYPE 14	0.64 µg/mL
Cc1cc(CCCCCOc2ccc(C3=NCCO3)c(C)c2)on1	-	MIC	-	TYPE 14	1.6 µM
CO/N=C(\C)c1ccc(OCCC2CCN(c3ccc(Cl)nn3)CC2)c(OC)c1	cytopathic effect / visual reading	EC50	KB	TYPE 1A	<0.0032 µg/mL
CC(CC(=N)N)NC(=O)C1CCC(N)=N1	-	MIC	-	Serotype 2	>100 µg/mL
CCN=C1CCC(C(=O)NCCC(=N)N)N1	-	MIC	-	Serotype 2	>100 µg/mL
CCO/N=C/c1ccc(OCCC2CCN(c3ccc(OCC(F)(F)F)nn3)CC2)cc1	cytopathic effect / visual reading	EC50	KB	TYPE 1A	>1 µg/mL